PubChem BioAssay AID624099 – ICCB-Longwood – 2012
The deposit covers about 21,000 reagents; this is a random part of them. Over the whole deposit, 497 (2.4%) are marked active. 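Higher z means weaker E2 silencing; only reporter increases were scored, and knock-downs that hurt cell survival may mask genuine repressor factors.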 Reagent sequences are not shown.

- Aim: 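Knock-downs relieving repression by E2 of an HPV18 LCR luciferase reporter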 (primary screen)
- Cell system: human C33A cervical carcinoma cells (HPV-negative) stably expressing BPV1 E2 and an HPV18 LCR luciferase reporter
- Knock-down reagent: siRNA pool against human genes, 40 nM
- Duration: 72 h
- Detection: 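Per-well luciferase luminescence, z-scored on each plate against the plate mean and SD with control wells left out, then averaged across three replicate plates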
- Reading the numbers: mean z-score and z-score: higher = stronger reporter signal, weaker E2 silencing
- Rule for the call: 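Mean z ≥ 2 together with z ≥ 2 in two or more of the three replicates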

The opening 3 entries as a preview:
| Gene | mean z-score | z-score, replicate A | z-score, replicate B | z-score, replicate C | activity call |
| --- | --- | --- | --- | --- | --- |
| ACTMAP (actin maturation protease) | -0.57 | -0.46 | -0.54 | -0.71 | inactive |
| LINC00470 (long independently transcribed non-coding RNA 470) | -0.44 | -0.55 | -0.17 | -0.59 | inactive |
| FDX2 (ferredoxin 2) | -2.29 | -2.58 | -2 | -2.28 | inactive |

The list itself, from the first entry:
| Gene | mean z-score | z-score, replicate A | z-score, replicate B | z-score, replicate C | activity call |
| --- | --- | --- | --- | --- | --- |
| ACTMAP (actin maturation protease) | -0.57 | -0.46 | -0.54 | -0.71 | inactive |
| LINC00470 (long independently transcribed non-coding RNA 470) | -0.44 | -0.55 | -0.17 | -0.59 | inactive |
| FDX2 (ferredoxin 2) | -2.29 | -2.58 | -2 | -2.28 | inactive |
| KCNJ11 (potassium inwardly rectifying channel subfamily J member 11) | 0.22 | 0.17 | 0.31 | 0.18 | inactive |
| IKZF4 (IKAROS family zinc finger 4) | -1.31 | -1.06 | -1.4 | -1.46 | inactive |
| KAZALD1 (Kazal type serine peptidase inhibitor domain 1) | -0.81 | -1.03 | -0.74 | -0.65 | inactive |
| OOSP1 (oocyte secreted protein 1) | -0.01 | -0.09 | 0 | 0.06 | inactive |
| CACNA1A (calcium voltage-gated channel subunit alpha1 A) | 0.73 | 0.13 | 0.79 | 1.26 | inactive |
| SPMIP8 (sperm microtubule inner protein 8) | 0.49 | 0.27 | 0.53 | 0.67 | inactive |
| IQCB1 (IQ motif containing B1) | -1.04 | -1.08 | -1.15 | -0.89 | inactive |
| ZNF638 (zinc finger protein 638) | -0.44 | -0.39 | -0.68 | -0.26 | inactive |
| SAMD1 (sterile alpha motif domain containing 1) | -0.25 | 0.1 | -0.19 | -0.68 | inactive |
| SH2B3 (SH2B adaptor protein 3) | 0.73 | 0.95 | 0.81 | 0.44 | inactive |
| DND1 (DND microRNA-mediated repression inhibitor 1) | -1.19 | -1.45 | -0.94 | -1.18 | inactive |
| STXBP6 (syntaxin binding protein 6) | 0.89 | 0.75 | 0.68 | 1.25 | inactive |
| FLI1 (Fli-1 proto-oncogene, ETS transcription factor) | -0.47 | -0.45 | -0.5 | -0.45 | inactive |
| ST6GAL1 (ST6 beta-galactoside alpha-2,6-sialyltransferase 1) | -0.51 | -0.75 | -0.31 | -0.47 | inactive |
| USP17L6P | -0.24 | -0.11 | -0.3 | -0.31 | inactive |
| GRAPL-AS1 (GRAPL antisense RNA 1) | 2.26 | 1.51 | 2.67 | 2.61 | active |
| DDX21 (DExD-box helicase 21) | 0.2 | -0.32 | 0.66 | 0.26 | inactive |
| OLFML1 (olfactomedin like 1) | 0.12 | -0.11 | 0.08 | 0.39 | inactive |
| NFS1 (NFS1 cysteine desulfurase) | -0.48 | -0.3 | -0.58 | -0.56 | inactive |
| ATMIN (ATM interactor) | -0.48 | -0.71 | -0.44 | -0.29 | inactive |
| TCP11 (t-complex 11) | 1.11 | 1.16 | 1.01 | 1.16 | inactive |
| TYK2 (tyrosine kinase 2) | 0.14 | 0.17 | 0.18 | 0.09 | inactive |
| MTMR10 (myotubularin related protein 10) | 1.31 | 1.12 | 1.57 | 1.24 | inactive |
| EEF2 (eukaryotic translation elongation factor 2) | -1.13 | -1.15 | -1.11 | -1.13 | inactive |
| PDZD11 (PDZ domain containing 11) | -1.15 | -0.81 | -1.2 | -1.42 | inactive |
| ZNF711 (ZFX family zinc finger ZNF711) | 0 | -0.09 | 0.08 | 0.01 | inactive |
| SPG21 (SPG21 abhydrolase domain containing, maspardin) | 0.09 | 0.25 | 0.12 | -0.08 | inactive |
| TATDN3 (TatD DNase domain containing 3) | 0.72 | 0.78 | 0.65 | 0.73 | inactive |
| LIAT1 (ligand of ATE1) | 0.11 | 0.06 | 0.02 | 0.25 | inactive |
| PRSS8 (serine protease 8) | 0.17 | 0.2 | 0.2 | 0.1 | inactive |
| GIMAP4 (GTPase, IMAP family member 4) | -0.07 | 0.11 | 0.17 | -0.49 | inactive |
| LOC387888 (retired record) | 0.83 | 0.63 | 0.93 | 0.93 | inactive |
| LYZL4 (lysozyme like 4) | 1.22 | 1.02 | 1.26 | 1.39 | inactive |
| SLC2A9 | -1.3 | -1.23 | -1.42 | -1.25 | inactive |
| LINC00314 (long independently transcribed non-coding RNA 314) | 0.14 | 0.03 | 0.22 | 0.18 | inactive |
| VSIG8 (V-set and immunoglobulin domain containing 8) | -1.19 | -0.79 | -1.21 | -1.59 | inactive |
